## Zika virus NS2B-NS3: effect of single substitutions on growth in cell culture

Data from the supplement of Ni et al. 2025, doi:10.1038/s41467-025-63602-z.

Chain scanned (Zika virus MR766; NS2B from position 2 to 131, then the start of NS3):
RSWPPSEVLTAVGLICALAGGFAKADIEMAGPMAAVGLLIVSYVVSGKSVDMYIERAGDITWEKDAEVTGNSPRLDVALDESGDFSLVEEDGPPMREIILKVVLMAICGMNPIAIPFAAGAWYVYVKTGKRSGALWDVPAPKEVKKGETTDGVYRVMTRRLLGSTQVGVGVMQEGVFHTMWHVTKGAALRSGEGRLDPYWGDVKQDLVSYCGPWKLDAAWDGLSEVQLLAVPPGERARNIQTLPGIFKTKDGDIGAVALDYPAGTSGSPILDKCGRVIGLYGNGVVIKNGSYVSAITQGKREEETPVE

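Libraries of single mutants were passaged as virus pools on Huh-7.5 cells. The effect is the change in frequency of a mutant, normalised to wild type, as a mean of three replicate libraries (two for positions 207-308).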

Scale: log2 effect, wild type = 0; the lower, the more harmful to the virus. A change reads original residue, position, new residue. All changes here are to arginine. Six mutants with high scores were retested singly and none clearly outgrew wild type, so positive values are not proof of better growth.

- V167R: -7.46
- G168R: -6.21
- V169R: -7.18
- G170R: -7.16
- V171R: -6.88
- M172R: -7.22
- Q173R: -3.34
- E174R: -5.13
- G175R: -4.86
- V176R: -6.67
- F177R: -6.76
- H178R: -6.10
- T179R: -7.17
- M180R: -6.21
- W181R: -5.92
- H182R: -6.29
- V183R: -6.21
- T184R: -7.23
- K185R: -1.60
- G186R: -6.47
- A187R: -6.51
- A188R: -5.70
- L189R: -5.95
- S191R: -4.96
- G192R: -4.66
- E193R: -2.33
- G194R: -7.38
- L196R: -7.11
- D197R: -6.73
- P198R: -8.07
- Y199R: -2.88
- W200R: -8.29
- G201R: -7.16
- D202R: -6.81
- V203R: -8.30
- K204R: -0.18
- Q205R: -6.80
- D206R: -7.77
- L207R: -8.54
- V208R: -9.18
- S209R: -7.44
- Y210R: -7.71
- C211R: -3.76
- G212R: -8.13
- P213R: -2.20
- W214R: -9.16
- K215R: 0.07

The first 2 entries again:

substitution	log2 effect
V167R	-7.46
G168R	-6.21

The authors count -1 or higher as tolerated. Position 1 is the last residue of NS2A. Positions 1-103, 104-206 and 207-308 were made and measured as separate libraries.